Experimental data: patent US20240336672A1 (INSTITUT PASTEUR, published 2024)

What was measured:
[1] = target: SARS-CoV-2 Omicron subvariant BA.2 RBD (SARS-CoV-2); assay: ELISA [D]
[2] = target: SARS-CoV-2 RBD (B.1.351) domain (SARS-CoV-2); assay: ELISA; parameters: unit not given beside the values

B1: COV2-2196 (parental IgG1 version) (antibody, V domains shown)
VH: QMQLVQSGPEVKKPGTSVKVSCKASGFTFMSSAVQWVRQARGQRLEWIGWIVIGSGNTNYAQKFQERVTITRDMSTSTAYMELSSLRSEDTAVYYCAAPYCSSISCNDGFDIWGQGTMVTVSS
VL: not shown
binding result [1]: no binding
AUC [2]: 3
